Compound potency records, mixed from different reports. Data source: NIAID ChemDB in PubChem.

Shared fields: growth or infection tests; species: Hepatitis C virus; endpoint: EC50

Rows are shuffled and stem from different studies.

| SMILES | cells | method | strain or isolate | changes | result |
|---|---|---|---|---|---|
| CC1(C)CC(=O)C2=C(C1)Nc1c(O)cccc1N(C(=O)c1ccc(Br)cn1)C2c1ccc(OCc2ccccc2)cc1F |  | luciferase / reporter gene / replicon | 1b |  | 6.36 µM |
| COc1c(-c2ccc3cc(NS(C)(=O)=O)ccc3c2)cc(-n2ccc(=O)[nH]c2=O)cc1C(C)(C)C | Huh7 | luciferase | genotype 1b | M423T | 0.00064 µM |
| N#Cc1c(NCCc2cccs2)s[nH]c1=O | Huh7 | replicon |  |  | >50 µM |
| C/C=N/N(c1ccc(OCCCCCCCC)c(C(F)(F)F)c1)c1nc(-c2cccnc2)c(F)s1 |  |  |  |  | >10 µM |
| COC(=O)N[C@H](C(=O)N1CCC[C@H]1c1ncc(-c2ccc(-c3ccc(-c4cnc([C@@H]5CCCN5C(=O)[C@@H](NC(=O)OC)C(C)C)[nH]4)cc3)cc2)[nH]1)C(C)C | Lunet | luciferase | 1a | L31V | 0.018 µM |
| C=CC1CC1(NC(=O)[C@@H]1C[C@@H](Oc2cc(-c3ccccc3)nc3cc(OC)ccc23)CN1C(=O)[C@@H](NC(=O)OC(C)(C)C)C(C)(C)C)C(=O)NS(=O)(=O)C1(C2=CCCCC2)CC1 | Huh7 | replicon | 1b |  | 0.05–0.5 µM |
| CC1(C)CC(=O)C2=C(C1)Nc1c(O)cccc1N(C(=O)OCCC(=O)O)C2c1ccc(OCc2ccccc2)cc1Cl |  | luciferase / reporter gene / replicon | 1b |  | >100 µM |
| CC(C)COc1ccc(N(C(N)=O)c2nc(-c3cccnc3)cs2)cc1C(F)(F)F |  |  |  |  | <1 µM |
| Nc1ncnc2c1c(-c1ccc3ccccc3c1)cn2[C@@H]1O[C@H](CO)[C@@H](O)C1(F)F | HCV replicon | replicon | 1b |  | 1.21 µM |
| N#Cc1c(Nc2ccc(Cl)cc2Cl)s[nH]c1=O | Huh7 | replicon |  |  | 10–50 µM |
| Nc1ncnc2c1c(I)cn2[C@@H]1O[C@H](CO)[C@@H](O)[C@H]1F | HCV replicon | replicon | 2a |  | 4.36 µM |
| CCCC1CCC(c2ccc(Nc3s[nH]c(=O)c3C#N)cc2)CC1 | Huh7 | replicon |  |  | 1–10 µM |
| C=CC1CC1(NC(=O)[C@@H]1C[C@@H](Oc2cc(-c3ccccc3)nc3cc(OC)ccc23)CN1C(=O)[C@@H](NC(=O)OC(C)(C)C)C(C)(C)C)C(=O)NS(=O)(=O)C1(C(=O)Cc2ccccc2)CC1 | Huh7 | replicon | 1b |  | <0.05 µM |
| Nc1ncnc2c1c(I)cn2[C@H]1O[C@H](CO)[C@@H](O)C1(F)F | HCV replicon | replicon | 1a |  | 2.48 µM |
| COc1ccc2c(O[C@@H]3C[C@@H](C(=O)N[C@@]4(C(=O)NS(=O)(=O)C5(CC6CC6)CC5)CC4C4CC4)N(C(=O)[C@@H](NC(=O)OC(C)(C)C)C(C)(C)C)C3)cc(-c3ccccc3)nc2c1 | Huh7 | replicon | 1b |  | 0.05–0.5 µM |
| N#Cc1c(Nc2ccc(C(F)(F)F)cn2)s[nH]c1=O | Huh7 | replicon |  |  | 10–50 µM |
| Cc1nc(C(=O)N2c3cccc(O)c3NC3=C(C(=O)CC(C)(C)C3)[C@@H]2c2ccc(OCc3ccccc3)cc2F)cs1 |  | luciferase / reporter gene / replicon | 1b |  | 0.35 µM |
| C=C[C@H]1C[C@@]1(NC(=O)[C@@H]1C[C@@H](Oc2cc(-c3ccccc3)nc3cc(OC)ccc23)CN1C(=O)[C@@H](NC(=O)OC(C)(C)C)C(C)(C)C)C(=O)NS(=O)(=O)C1(CC2CC2)CC1 | Huh7 | replicon | 1b |  | <0.05 µM |
| CCCCCOc1ccc(N(C(=O)C2CC2)c2nc(-c3cccnc3)cs2)cc1F |  |  |  |  | <1 µM |
| Nc1ncnc2c1c(-c1ccoc1)cn2[C@@H]1O[C@H](CO)[C@@H](O)C1(F)F | HCV replicon | replicon | 2a |  | 10.3 µM |
| CCCCCOc1ccc(N(C(N)=O)c2nc(-c3ccc(C)nc3)cs2)cc1F |  |  |  |  | <1 µM |
| C=CC1C[C@@]1(NC(=O)[C@@H]1C[C@@H](Oc2cc(-c3ccccc3)nc3cc(OC)ccc23)CN1C(=O)[C@@H](NC(=O)Oc1ccccc1OC)C(C)(C)C)C(=O)NS(=O)(=O)C1(Cc2ccccc2)CC1 | Huh7 | replicon | 1b |  | 0.5–5 µM |
| C=CCCNC(=O)CCC(=O)N1c2cccc(O)c2NC2=C(C(=O)CC(C)(C)C2)C1c1ccc(OCc2ccccc2)cc1Cl |  | luciferase / reporter gene / replicon | 1b |  | 8.75 µM |
| O=C(OCc1ccccc1)[C@@H]1CCCN1C(=O)Nc1ccc(C2SC(=Nc3cccc(F)c3)N(Cc3ccoc3)C2=O)cc1 | Huh7 | replicon |  |  | >5 µM |
| CC1(C)CC(=O)C2=C(C1)Nc1c(O)cccc1N(C(=O)CC(=O)O)C2c1ccc(Oc2ccccc2Br)cc1Cl |  | luciferase / reporter gene / replicon | 1b |  | >100 µM |
| CC(=O)c1cccc(Nc2s[nH]c(=O)c2C#N)c1 | Huh7 | replicon |  |  | >50 µM |
| CN=C1SC(c2ccc(NC(=O)[C@@H](C)NC(=O)C(c3ccccc3)c3ccccc3)cc2)C(=O)N1Cc1ccccn1 | Huh7 | replicon |  |  | <0.1 µM |
| Nc1ncnc2c1c(-c1ccccc1)cn2[C@@H]1O[C@H](CO)[C@@H](O)[C@H]1F | HCV replicon | replicon | 1a |  | 33.13 µM |
| O=C(Nc1ccc(C2SC(=Nc3ccc(N4CCOCC4)cc3)N(Cc3ccco3)C2=O)cc1)[C@H]1CCCN1C(=O)OCc1ccccc1 | Huh7 | replicon |  |  | <0.1 µM |
| NC(=O)COc1ccc2c(c1)S(=O)(=O)N=C(c1c(O)c3cc(F)ccc3n(CCC3CC3)c1=O)N2 |  | replicon | 1a H77 |  | 0.013 µM |
| C=CC1C[C@@]1(NC(=O)[C@@H]1C[C@@H](Oc2cc(-c3csc(NC(C)C)n3)nc3cc(OC)ccc23)CN1C(=O)[C@@H](NC(=O)OC(C)(C)C)C(C)(C)C)C(=O)NS(=O)(=O)C1(CC2CC2)CC1 | Huh7 | replicon | 1b |  | 0.05–0.5 µM |
| O=C(Nc1ccc(C2SC(=Nc3ccc(N4CCOCC4)cc3)N(Cc3ccccn3)C2=O)cc1)[C@H]1CCCN1C(=O)Cc1ccccc1 | Huh7 | replicon |  |  | <0.1 µM |
| C=C[C@H]1C[C@@]1(NC(=O)[C@@H]1C[C@@H](Oc2cc(-c3ccccc3)nc3cc(OC)ccc23)CN1C(=O)[C@@H](NC(=O)OC(C)(C)C)C(C)(C)C)C(=O)NS(=O)(=O)C1(CCOC)CC1 | Huh7 | replicon | 1b |  | <0.05 µM |
| CCCCn1c(=O)c2cc(OC)ccc2c2cc(C(O)(C(F)(F)F)C(F)(F)F)c3c(c21)OCO3 | LucNeo2 cells | luciferase | 1b |  | 0.063 µM |
| C=CC1C[C@@]1(NC(=O)[C@@H]1C[C@@H](Oc2cc(-c3ccccc3)nc3cc(OC)ccc23)CN1C(=O)[C@@H](NC(=O)CC(C)(C)C)C(C)(C)C)C(=O)NS(=O)(=O)C1(Cc2ccccc2)CC1 | Huh7 | replicon | 1b |  | 0.05–0.5 µM |
| CCCCCCCCCN1CCN(Cc2c(O)cc3c(c2O)-c2cc(ccc2O)[C@H]2NC(=O)[C@@H]4NC(=O)[C@H]5NC(=O)[C@@H](Cc6ccc(c(Cl)c6)Oc6cc4cc(c6O)Oc4ccc(cc4Cl)[C@@H](O)[C@H](NC2=O)C(=O)N[C@@H]3C(=O)O)NC(=O)[C@H](N)c2ccc(O)c(c2)Oc2cc(O)cc5c2)CC1 |  | luciferase | Huh Mono |  | 4.8 µM |
| C=CC1CC1(NC(=O)[C@@H]1C[C@@H](Oc2cc(-c3ccccc3)nc3cc(OC)ccc23)CN1C(=O)[C@@H](NC(=O)OC(C)(C)C)C(C)(C)C)C(=O)NS(=O)(=O)C1(CC2CC2)CC1 | Huh7 | replicon | 1b |  | <0.05 µM |
| C[C@@H](NC(=O)OCc1ccccc1)C(=O)Nc1ccc(C2SC(=Nc3ccc(F)c(C(F)(F)F)c3)N(Cc3ccco3)C2=O)cc1 | Huh7 | replicon |  |  | 1–5 µM |

For reference, 4 entries again:

SMILES	cells	method	strain or isolate	changes	result
COc1c(-c2ccc3cc(NS(C)(=O)=O)ccc3c2)cc(-n2ccc(=O)[nH]c2=O)cc1C(C)(C)C	Huh7	luciferase	genotype 1b	M423T	0.00064 µM
O=C(Nc1ccc(C2SC(=Nc3ccc(N4CCOCC4)cc3)N(Cc3ccccn3)C2=O)cc1)[C@H]1CCCN1C(=O)Cc1ccccc1	Huh7	replicon			<0.1 µM
Nc1ncnc2c1c(-c1ccc3ccccc3c1)cn2[C@@H]1O[C@H](CO)[C@@H](O)C1(F)F	HCV replicon	replicon	1b		1.21 µM
C=CC1CC1(NC(=O)[C@@H]1C[C@@H](Oc2cc(-c3ccccc3)nc3cc(OC)ccc23)CN1C(=O)[C@@H](NC(=O)OC(C)(C)C)C(C)(C)C)C(=O)NS(=O)(=O)C1(CC2CC2)CC1	Huh7	replicon	1b		<0.05 µM

An empty or dashed field is not shown. Two numbers with a dash give a range or band. ECn is the concentration giving n% inhibition of infection, replication or growth.